One test concerns the target M2 (22-62, S31N) (Influenza A virus, UniProt P0DOF5, S31N). It is filed as biochemical.
Test [1] has as its target influenza A M2 channels (A/Udorn/72, S31N mutant) (Influenza A virus, UniProt P0DOF5, S31N). It is filed as cell-based. Conditions: pH 5.3.

With “Copper N-(1-adamantyl)iminoacetate acetylacetonate [Amt-IMA-Cu-ACAC]”, the EC50 at M2 (22-62, S31N) amounted to 4.5 µM; in test [1], 57 µM.
Turning to “Copper N-(1-cyclooctyl)iminoacetate acetylacetonate [CO-IMA-Cu-ACAC]”, the midpoint of the response in test [1], the EC50, lay at 64 µM. In other words, the double-digit micromolar range.
“Copper cyclooctylimidodiacetamide [CO-IDAm-Cu]” yielded an EC50 in test [1] of 37 µM. Against the preceding substance, the EC50 is about 1.7-fold lower.
In test [1], “Zinc cyclooctylimidodiacetamide [CO-IDAm-Zn]” gave an EC50 of 137 µM.

These data come from patent US20170128489A1 (priority 2014, published 2017).
